For the series the following is noted: 8-9 ppm, 1% NaCl water, 22-24° C., two weeks.

Turning to `O=O` [Dissolved Oxygen], under “carbon steel”, the “Corrosion rate, C1018” value came out at 27.65 mils/year; the “Corrosion rate, Ductile” value is 34.02 mils/year; the “Corrosion rate, pipe L80” value is on record as 37 mils/year. In addition, the “Corrosion rate, CDA122” value (other materials (water pipe copper alloy)) is listed as 4.56 mils/year. Also, the “Corrosion rate, Al 6061” value (other materials) is on record as 9.52 mils/year. Where the note is “stainless steel”, the “Corrosion rate, 17-4 PH” value was found to be 0.000 mils/year; the “Corrosion rate, 304L” value is 0.08 mils/year; the “Corrosion rate, CA6NM” value is 0.97 mils/year; the “Corrosion rate, CD4MCUN” value is listed as 0.10 mils/year.

For the origin of these results see patent publication US11311012B1, “Bacterial control in fermentation systems” (Clean Chemistry, Inc., priority 2017, dated 2022).
